Publication PMC6024821, “Synthesis, Structure and Biological Activity of CIA and CIB, Two α-Conotoxins from the Predation-Evoked Venom of Conus catus” (2018)
Values joined by “and” are separate entries in the source; they are usually repeats but may differ in a detail not shown here. Equal entries are not always repeated.

Amino acid sequences for entries named in this document (tags omitted). Residues count along the entry.
UniProt P04757, 26-499 limits assumed: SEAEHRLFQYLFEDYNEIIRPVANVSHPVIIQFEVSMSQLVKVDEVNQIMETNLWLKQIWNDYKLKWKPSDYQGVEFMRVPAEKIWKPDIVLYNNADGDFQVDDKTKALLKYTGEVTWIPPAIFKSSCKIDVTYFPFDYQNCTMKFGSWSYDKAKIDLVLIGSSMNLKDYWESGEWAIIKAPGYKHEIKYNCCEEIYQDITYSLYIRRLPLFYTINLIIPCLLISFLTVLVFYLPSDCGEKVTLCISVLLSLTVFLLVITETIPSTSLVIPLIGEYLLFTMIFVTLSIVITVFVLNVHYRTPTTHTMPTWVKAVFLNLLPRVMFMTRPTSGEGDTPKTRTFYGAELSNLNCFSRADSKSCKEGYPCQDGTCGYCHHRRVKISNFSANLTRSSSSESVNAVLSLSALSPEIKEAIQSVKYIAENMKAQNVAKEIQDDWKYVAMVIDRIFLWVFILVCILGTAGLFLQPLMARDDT
UniProt P12390, 25-500 limits assumed: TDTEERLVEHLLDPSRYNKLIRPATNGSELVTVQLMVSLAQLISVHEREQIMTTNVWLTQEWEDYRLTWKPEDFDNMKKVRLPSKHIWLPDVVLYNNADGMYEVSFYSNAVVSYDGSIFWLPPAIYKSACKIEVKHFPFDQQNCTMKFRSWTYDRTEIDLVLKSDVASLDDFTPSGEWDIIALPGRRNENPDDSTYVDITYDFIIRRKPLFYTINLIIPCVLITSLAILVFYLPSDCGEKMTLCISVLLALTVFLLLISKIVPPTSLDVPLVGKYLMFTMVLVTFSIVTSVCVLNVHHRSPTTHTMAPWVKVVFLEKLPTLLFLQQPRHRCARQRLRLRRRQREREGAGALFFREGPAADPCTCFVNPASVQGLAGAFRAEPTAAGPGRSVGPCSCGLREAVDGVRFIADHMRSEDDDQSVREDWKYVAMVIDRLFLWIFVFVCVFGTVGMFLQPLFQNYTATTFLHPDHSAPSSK

Target: neuronal nAChR subtype α3β2 (Rattus norvegicus, UniProt P04757+P12390)
Conditions: read-out: IC50, inhibition of neuronal nAChR α3β2; rat α3β2 in Xenopus laevis oocytes; -70 mV; 2-s pulses of 100 µM ACh; 3-min preincubation with toxin in static bath; ND96 pH 7.4; Hill fit; mean of at least 3 oocytes

SMILES: C[C@@H]1NC(=O)[C@@H]2CCCN2C(=O)[C@H](Cc2c[nH]cn2)NC(=O)[C@@H]2CSSC[C@@H](C(N)=O)NC(=O)[C@H](CO)NC(=O)[C@H](Cc3ccccc3)NC(=O)[C@H](Cc3c[nH]cn3)NC(=O)[C@H](CCCCN)NC(=O)CNC(=O)[C@H](CSSC[C@H](NC(=O)[C@H](CCCNC(=N)N)NC(=O)CNC(=O)[C@@H](N)CC(N)=O)C(=O)N2)NC1=O
- IC50: 2060 nM and 2000 nM
